Measurements as given in PubChem BioAssay AID1159583 (ICCB-Longwood Screening Facility, Harvard Medical School, 2016).
Only a part is listed here, and it is no random draw. Active and inactive are the calls of the source. No stated cut-off is given here; in the data, active means fluorescence inhibition mostly above about 23% (no sharp cut-off); inactive means mostly below about 17%.

test: hypoxia reporter signal reduction in M. tuberculosis – fluorescence, absorbance growth readout, primary screen (AID 1159583); conditions: M. tuberculosis hypoxia-regulated fluorescent reporter, stronger effect = higher value, concentration not given here

SMILES | fluorescence inhibition
COc1ccc(C(=O)NCC2(N3CCOCC3)CCCCC2)cc1OC | inactive: 11.4%
COc1cc(C(=O)NCC2(N3CCOCC3)CCCCC2)cc(OC)c1C | active: 32.8%
O=C(NCC1(N2CCOCC2)CCCCC1)c1cc(Br)ccc1Cl | inactive: 3.13%
CCc1cc(C(=O)NCC2(N3CCCCC3)CCCCC2)sc1C | inactive: 7.85%
O=C(OC1CN2CCC1CC2)C1c2ccccc2C=Cc2ccccc21 (configuration not stated) | inactive: 19.6%
CCOC(=O)N1CCC(Nc2ccc(C)cc2)CC1 | inactive: 5.13%
N#Cc1ccc(C(=O)NCC2(N3CCCCC3)CCCCC2)cc1 | inactive: 14.3%
CC(C)(C)OC(=O)N1CCC(N(C(=O)c2ccccc2)c2ccc(Cl)cc2)CC1 | inactive: 6.12%
CN(C)C1(CNC(=O)c2cccc(C#N)c2)CCCCC1 | inactive: 2.91%
CCCN1CCC(Nc2cc(OC)cc(OC)c2)CC1 | inactive: 12.5%
Fc1ccccc1NC1CCN(Cc2ccccc2)CC1 | inactive: -3.59%
Cc1ccc(C(=O)NCC2(N3CCCCC3)CCCCC2)o1 | inactive: 2.5%
Cc1ccc(NC2(C#N)CCN(Cc3ccccc3)CC2)cc1 | inactive: 9.35%
CC(=O)N(c1ccccc1)C1CCNCC1 | inactive: 1.01%
COc1cc(OC)cc(C(=O)NCC2(N3CCCCC3)CCCCC2)c1 | inactive: -3.42%
CN(C)c1ccc(C(=O)NCC2(N3CCCCC3)CCCCC2)cc1 | inactive: 7.41%
Cn1c(=O)[nH]cc(N(CCCl)CCCl)c1=O | inactive: 8.11%
O=C(NCC1(N2CCCCC2)CCCCC1)c1ccco1 | inactive: 6.3%
CCN1CCC(Nc2cccc(F)c2)CC1 | inactive: -2.08%
Cc1ccccc1NC1(C#N)CCN(Cc2ccccc2)CC1 | inactive: 6.22%
O=C(O)C1(Nc2ccccc2)CCN(Cc2ccccc2)CC1 | inactive: 9.34%
CC(C)(C)OC(=O)N1CCC(Nc2ccccc2)CC1 | inactive: 7.41%
CCCOc1ccc(C(=O)NCC2(N(C)C)CCCCC2)cc1 | inactive: 7.39%

SMILES | fluorescence inhibition
CN1CCC(Nc2ccc(F)c(Cl)c2)CC1 | inactive: -0.415%
CCOc1ncccc1C(=O)NCC1(N2CCOCC2)CCCCC1 | inactive: 6.98%
CN1CCC(Nc2ccc(Cl)cc2)CC1 | inactive: 12.3%
COc1cccc(C(=O)N(c2cc(C)cc(C)c2)C2CCN(C(=O)OC(C)(C)C)CC2)c1 | inactive: 5.83%
COc1cc(OC)cc(C(=O)NCC2(N3CCOCC3)CCCCC2)c1 | inactive: 4.46%
Cc1cccc(NC2(C#N)CCN(Cc3ccccc3)CC2)c1 | inactive: 10.8%
CSc1ccccc1C(=O)NCC1(N2CCCCC2)CCCCC1 | inactive: 7.12%
COc1ccc(C(=O)NCC2(N3CCCCC3)CCCCC2)c(OC)c1OC | inactive: -12.7%
CC(C)(C)OC(=O)N1CCC(N(C(=O)c2ccccc2)c2ccc(F)cc2)CC1 | inactive: 13.5%
COc1ccc(C(=O)NCC2(N3CCCCC3)CCCCC2)cc1 | inactive: 3.13%
O=C(NCC1(N2CCCCC2)CCCCC1)c1cccs1 | inactive: -7.6%
O=C(NCC1(N2CCCCC2)CCCCC1)c1ccc(=O)[nH]c1 | inactive: -0.974%
COc1ccc(Cl)cc1C(=O)NCC1(N2CCOCC2)CCCCC1 | inactive: -8.21%
O=C(NCC1(N2CCCCC2)CCCCC1)c1ccc(Cl)s1 | inactive: 11.4%
N#CC1(Nc2ccccc2)CCN(Cc2ccccc2)CC1 | inactive: -3.91%
O=C(OC1CN2CCC1CC2)C1c2ccccc2Oc2ccccc21 (configuration not stated) | inactive: 27.7%
CCOC(=O)N1CCC(Nc2ccc(OC)cc2)CC1 | inactive: 4.06%
Cc1cc(C)cc(N(C(=O)c2ccccc2)C2CCN(C(=O)OC(C)(C)C)CC2)c1 | inactive: -2.59%
O=C(NCC1(N2CCCCC2)CCCCC1)c1ccc(Cl)nc1 | inactive: -4.55%
CCOC(=O)N1CCC(Nc2ccc(F)cc2)CC1 | inactive: 5.03%
COc1ccc(NC2CCN(CCc3ccccc3)CC2)c(OC)c1 | inactive: 11.9%
CCCCOc1ccc(C(=O)NCC2(N3CCOCC3)CCCCC2)cc1 | inactive: 4.61%
O=P1(N(CCCl)CCCl)SCCCS1 | inactive: 9%

SMILES | fluorescence inhibition
O=C(NCC1(N2CCCCC2)CCCCC1)c1ccc(F)cc1 | inactive: -4.13%
CCOc1ccc(C)cc1CN(CCCl)CCCl | inactive: -2.76%
CCOC(=O)N1CCC(Nc2cccc(C)c2)CC1 | inactive: 12.3%
COc1cc(C(=O)NCC2(N(C)C)CCCCC2)ccc1OC(F)F | inactive: -6.19%
N#CC1(Nc2ccccc2)CCN(CCc2ccccc2)CC1 | inactive: 3.52%
CCN1CCC(Nc2ccc(Cl)cc2)CC1 | inactive: 3.78%
O=C(NCC1(N2CCCCC2)CCCCC1)c1cccc([N+](=O)[O-])c1 | inactive: 15.3%
CSc1ccc(C(=O)NCC2(N3CCOCC3)CCCCC2)cc1 | inactive: 2.62%
O=C(NCC1(N2CCCCC2)CCCCC1)c1ccc(OC(F)F)cc1 | inactive: 9.8%
COc1cc(C(=O)NCC2(N3CCCCC3)CCCCC2)ccc1OC(F)F | inactive: 11%
COc1ccc(NC2CCN(C(=O)OC(C)(C)C)CC2)cc1 | inactive: 1.52%
CC(C)c1ccc(C(=O)NCC2(N3CCOCC3)CCCCC2)cc1 | inactive: 13.3%
CN1CCN(CCOC(=O)C(O)(c2ccccc2)c2ccccc2)CC1 | inactive: 5.39%
O=C(NCC1(N2CCCCC2)CCCCC1)c1cccc(C(F)(F)F)c1 | inactive: -0.529%
O=C(NCC1(N2CCOCC2)CCCCC1)c1cc(F)c(F)cc1Cl | inactive: -0.803%
COc1cc(OC)c(C(=O)NCC2(N(C)C)CCCCC2)cc1OC | inactive: -0.881%
CC(C)c1ccc(NC2CCN(C(=O)OC(C)(C)C)CC2)cc1 | inactive: 8.27%
CN(C)c1cccc(C(=O)NCC2(N3CCCCC3)CCCCC2)c1 | inactive: 6.77%
COc1ccc(CN(CCCl)CCCl)cc1Cl | inactive: 15.9%
CCCOc1ccc(C(=O)NCC2(N(C)C)CCCCC2)cc1OC | inactive: 2.61%
O=C(NCC1(N2CCCCC2)CCCCC1)c1cncc(Br)c1 | inactive: -6.7%
